Compound potency records, mixed from different reports. Data source: NIAID ChemDB in PubChem.

Common to all: growth or infection tests; organism: Mycobacterium kansasii; measure: MIC

Conditions beyond the fields shown may differ between rows. Blank or dashed fields: not listed here.

O=C(Nc1ccc(Cl)cc1)c1cc(Cl)ccc1OP(=O)(c1ccccc1)c1ccccc1 ; strain or isolate: My 235/80 ; setting: 21 d ; result: 8 µM
O=C(N[C@@H]([C@@H](O)CNCc1cccc(I)c1)C(F)(F)c1ccccc1)OCc1ccccc1 ; strain or isolate: ATCC 35775 ; method: broth dilution ; result: 32 µg/mL
O=C(Nc1ccc(C(F)(F)F)cc1)c1cc(Br)ccc1OP(=O)(OCc1ccccc1)OCc1ccccc1 ; strain or isolate: My 235/80 ; setting: 7 d ; result: 8 µM
C=C1C(=O)N[C@@H](CC(C)C)C(=O)N[C@H](CC(C)C)C(=O)N[C@H](C(=O)O)[C@H](C)C(=O)N[C@H](CCCN=C(N)N)C(=O)N[C@@H](/C=C/C(C)=C/[C@H](C)[C@H](Cc2ccccc2)OC)[C@@H](C)C(=O)N[C@@H](C(=O)O)CCC(=O)N1C ; method: resazurin ; result: 0.42 µM
O=C(N/N=C/N1CCN(c2cc3c(cc2F)c(=O)c(C(=O)O)cn3C2CC2)CC1)c1ccc(C(F)(F)F)cc1 ; strain or isolate: 6509/96 ; setting: 14 d ; result: 1 µM
O=C(/C=C/c1ccc(F)cc1)c1cnccn1 ; strain or isolate: Hauduroy ; method: absorbance ; result: 12.5 µg/mL
O=C(Nc1ccc(Br)cc1)c1cc(Cl)ccc1OP(=O)(c1ccccc1)c1ccccc1 ; strain or isolate: My 235/80 ; setting: 7 d ; result: 4 µM
O=C(/C=C/c1ccc(Br)cc1)c1cnccn1 ; strain or isolate: Hauduroy ; method: absorbance ; result: 12.5 µg/mL
O=C(Nc1ccccc1)c1ccccc1OP(=O)(Oc1ccccc1)Oc1ccccc1 ; strain or isolate: My 235/80 ; setting: 14 d ; result: 500 µM
O=C(N[C@H]([C@@H](O)CNCc1cccc(I)c1)C(F)(F)c1ccccc1)OCc1ccccc1 ; strain or isolate: P ; method: broth dilution ; result: 32 µg/mL
CC(C)Cc1cnc(C(=O)/C=C/c2ccccc2Br)cn1 ; strain or isolate: Hauduroy ; method: absorbance ; result: 100 µg/mL
CC[C@@H](CO)NCCN[C@@H](CC)CO ; strain or isolate: ATCC 35775 ; method: broth dilution ; result: 0.5 µg/mL
CC(C)Cc1cnc(C(=O)/C=C/c2ccc(Br)cc2)cn1 ; strain or isolate: Hauduroy ; method: absorbance ; result: 25 µg/mL
O=C1c2cc(Cl)ccc2OP(=O)(c2ccccc2)N1c1ccc(Cl)cc1 ; strain or isolate: My 235/80 ; setting: 14 d ; result: 16 µM
O=C(N[C@@H]([C@H](O)CNCc1cccc(I)c1)C(F)(F)c1ccccc1)OCc1ccccc1 ; strain or isolate: P ; method: broth dilution ; result: 64 µg/mL

2 of the rows above, restated:

| structure | strain or isolate | method | setting | result |
|---|---|---|---|---|
| O=C(N[C@H]([C@@H](O)CNCc1cccc(I)c1)C(F)(F)c1ccccc1)OCc1ccccc1 | P | broth dilution | - | 32 µg/mL |
| C=C1C(=O)N[C@@H](CC(C)C)C(=O)N[C@H](CC(C)C)C(=O)N[C@H](C(=O)O)[C@H](C)C(=O)N[C@H](CCCN=C(N)N)C(=O)N[C@@H](/C=C/C(C)=C/[C@H](C)[C@H](Cc2ccccc2)OC)[C@@H](C)C(=O)N[C@@H](C(=O)O)CCC(=O)N1C | - | resazurin | - | 0.42 µM |